Data as given in PubChem BioAssay AID1259414 (Drosophila RNAi Screening Center, 2018)

Assay: 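Fly genes that alter Wolbachia amount inside host cells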 (primary screen)
Cell system: Drosophila JW18 cells infected with Wolbachia
Reagent: long dsRNA against Drosophila genes, 0.25 µg dsRNA per well of a 384-well plate
Time to read-out: 5 days
Treatment: cells persistently infected with Wolbachia before knock-down; no added drug
Read-out: 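Imaged fluorescence in situ signal for Wolbachia 23S rRNA per DAPI-counted host cell, given as a robust z-score within each plate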
Scale: Wolbachia per cell robust z: higher = more Wolbachia per host cell than the plate typical
Hit rule: 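Active if absolute robust z reaches 1.5 in two or more of three replicates, leaving out multi- or no-target dsRNAs, genes unexpressed in JW18 and A1 wells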
In all, the deposit lists about 24,000 reagents; below is a random part of those with a known target gene and a result. Over the whole deposit, about 1,210 (5%) were called active. 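Inactive calls also include excluded dsRNAs with several or no targets, genes unexpressed in JW18, and well A1, regardless of score.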 Names joined by + are all predicted targets of the reagent.

gene | DRSC id | Wolbachia per cell robust z, rep 1 | Wolbachia per cell robust z, rep 2 | Wolbachia per cell robust z, rep 3 | Outcome
CG15035 | DRSC17967 | -0.568 | -4.18 | -2.05 | inactive
CG15035 | DRSC41385 | -3.1 | -1.78 | -1.18 | inactive
CG8388 | DRSC07157 | 0.756 | 0.23 | -0.513 | inactive
Ir56a (Ionotropic receptor 56a) | DRSC05776 | 0.0408 | 0.517 | -0.707 | inactive
Ir56a (Ionotropic receptor 56a) | DRSC28590 | 0.0863 | -1.36 | -0.293 | inactive
CG15721 | DRSC19688 | -1.95 | -1.88 | 1.34 | inactive
CG43397 + CG12902 | DRSC06217 | 0.518 | -0.673 | -2.04 | inactive
sut3 (sugar transporter 3) | DRSC07702 | 0.0954 | -0.684 | -0.821 | inactive
sut3 (sugar transporter 3) | DRSC24322 | 1.25 | 1.54 | 0.812 | inactive
CG6052 | DRSC10574 | 0.517 | -0.167 | -0.252 | inactive
CG31493 | DRSC12583 | 0.916 | 0.236 | -0.17 | inactive
CG34428 | DRSC10119 | -0.244 | 1.12 | -0.893 | inactive
ppk7 (pickpocket 7) | DRSC03236 | 0.417 | 0.813 | 0.397 | inactive
Rpp21 (Ribonuclease P/MRP subunit p21) | DRSC22480 | -0.349 | 0.0787 | 0.371 | inactive
Rpp21 (Ribonuclease P/MRP subunit p21) | DRSC29867 | 0.282 | 1.66 | 1.31 | inactive
Madm (MLF1-adaptor molecule) | DRSC12129 | 0.0163 | -1.73 | -0.393 | inactive
Madm (MLF1-adaptor molecule) | DRSC25999 | -0.0384 | 0.0382 | -0.536 | inactive
cysu (Curly Su) | DRSC15902 | 0.319 | 0.818 | 1.01 | inactive
cysu (Curly Su) | DRSC28838 | -0.959 | -1.01 | -1.02 | inactive
cysu (Curly Su) | DRSC39069 | -1.19 | 1.07 | 0.588 | inactive
CG3792 | DRSC02725 | -0.875 | 0.246 | 0.181 | inactive
mamo (maternal gene required for meiosis) | DRSC19001 | -0.601 | -0.448 | 0.033 | inactive
mamo (maternal gene required for meiosis) | DRSC19370 | 0.495 | -0.0692 | 0.459 | inactive
mamo (maternal gene required for meiosis) | DRSC19371 | -1.46 | 1.01 | -3.52 | inactive
mamo (maternal gene required for meiosis) | DRSC19372 | -0.108 | 0.591 | -0.344 | inactive
mamo (maternal gene required for meiosis) | DRSC23035 | -1.2 | -2.71 | -1.98 | active
mamo (maternal gene required for meiosis) | DRSC25810 | -1.77 | -3.58 | -2.79 | active
mamo (maternal gene required for meiosis) | DRSC26998 | -1.57 | -0.651 | -1.11 | inactive
mamo (maternal gene required for meiosis) | DRSC29723 | -1.42 | 0.00105 | -10.1 | inactive
CG8229 | DRSC07114 | 0.495 | 0.528 | 0.727 | inactive
CG8229 | DRSC27067 | -0.894 | -0.667 | -2.01 | inactive
Pgm2a (Phosphoglucomutase 2a) | DRSC07068 | 0.243 | 0.915 | 0.349 | inactive
SmD3 (Small ribonucleoprotein particle protein SmD3) | DRSC07553 | 1.16 | 1.34 | 0.918 | inactive
SmD3 (Small ribonucleoprotein particle protein SmD3) | DRSC29356 | 1.89 | 1.47 | 1.74 | active
eIF6 (eukaryotic translation initiation factor 6) | DRSC04674 | -1.25 | -5.29 | 0.307 | inactive
eIF6 (eukaryotic translation initiation factor 6) | DRSC29068 | -0.586 | -0.724 | -0.0269 | inactive
CG30268 | DRSC21983 | -0.738 | -0.808 | -0.263 | inactive
mthl12 (methuselah-like 12) | DRSC12964 | -1.17 | 0.329 | 0.314 | inactive
CG4953 | DRSC02792 | -0.763 | -0.622 | 0.333 | inactive
Pif2 (PFTAIRE-interacting factor 2) | DRSC12525 | -1.68 | -0.949 | 0.515 | inactive
Pif2 (PFTAIRE-interacting factor 2) | DRSC26251 | -0.38 | 0.823 | 0.401 | inactive
Snx21 (Sorting nexin 21) | DRSC00564 | 0.237 | -0.88 | -2.7 | inactive
Snx21 (Sorting nexin 21) | DRSC28493 | -1.46 | -1.22 | -0.334 | inactive
Cyp9f3 (Cytochrome P450 9f3) | DRSC16636 | -0.00545 | -7.86 | -3.06 | active
Cyp9f3 (Cytochrome P450 9f3) | DRSC25711 | 1.33 | 0.17 | -2.86 | inactive
Impbeta11 + asRNA:CR43429 | DRSC07525 | 0.266 | -0.0849 | -1.61 | inactive
jus (julius seizure) | DRSC23018 | 0.453 | 0.0909 | -3.72 | inactive
jus (julius seizure) | DRSC26804 | -0.0693 | 0.185 | -1.12 | inactive
crok (crooked) | DRSC02593 | 0.139 | 1.13 | -2.06 | inactive
crok (crooked) | DRSC21349 | 0.408 | 0.606 | 0.197 | inactive
crok (crooked) | DRSC29822 | -0.913 | -1.48 | 0.611 | inactive
CG34409 | DRSC14577 | -4.92 | -0.202 | 0.108 | inactive
CG34409 | DRSC21667 | 0.647 | 0.892 | -0.235 | inactive
CG3163 | DRSC04341 | -0.167 | -0.0123 | 0.258 | inactive
CG3163 | DRSC28242 | -1.97 | -0.592 | -1.62 | active
CG6688 | DRSC16094 | 0.963 | -1.43 | 1.06 | inactive
CG6688 | DRSC25613 | -0.158 | -0.885 | -0.726 | inactive
betaNACtes1 (Nascent-associated complex beta-subunit-like, testis 1) | DRSC19534 | -4.04 | -2.86 | -2.5 | inactive
betaNACtes1 (Nascent-associated complex beta-subunit-like, testis 1) | DRSC26176 | -1.44 | -1.03 | 0.45 | inactive
CG14422 | DRSC17919 | 0.943 | 0.627 | 0.591 | inactive
CG14422 | DRSC25359 | 0.457 | 1.55 | -1.29 | inactive
Polr2A (RNA polymerase II subunit A) | DRSC20280 | 2.44 | 2.22 | 1.43 | active
Polr2A (RNA polymerase II subunit A) | DRSC27157 | 2.4 | 1.57 | 1.56 | active
Klf15 (Kruppel-like factor 15) | DRSC17742 | -0.021 | -1.13 | -2.28 | inactive
CG6511 | DRSC10656 | -1.24 | 0.258 | -0.192 | inactive
CG5021 | DRSC10469 | -1.68 | -1.4 | -0.271 | inactive
Spf30 (Splicing factor 30) | DRSC11976 | 0.621 | -0.709 | -2.29 | inactive
CG34393 | DRSC00419 | 0.874 | -0.103 | -0.33 | inactive
CG34393 | DRSC00710 | -0.533 | -0.2 | 0.681 | inactive
CG34393 | DRSC24621 | -1.51 | 0.347 | -0.917 | inactive
CG34393 | DRSC26763 | -7.5 | 0.063 | -8.35 | inactive

Records listed so far whose gene name starts with I or i:
gene | DRSC id | Wolbachia per cell robust z, rep 1 | Wolbachia per cell robust z, rep 2 | Wolbachia per cell robust z, rep 3 | Outcome
Ir56a (Ionotropic receptor 56a) | DRSC05776 | 0.0408 | 0.517 | -0.707 | inactive
Ir56a (Ionotropic receptor 56a) | DRSC28590 | 0.0863 | -1.36 | -0.293 | inactive
Impbeta11 + asRNA:CR43429 | DRSC07525 | 0.266 | -0.0849 | -1.61 | inactive
